We go through 12 molecules from the supplement of paper PMC9931576.

Human monoclonal antibodies against the spike receptor-binding domain (heavy:light variable regions). IC50 against pseudoviruses bearing the spike of naturally observed variants; lower = stronger; >10 µg/ml means not reached at the top dose. No active / inactive call. The stated detection limit is 0.0005 µg/ml; values near or below 0.001 µg/ml lie at the floor of the assay.

B1: BD55-1028 (protein)
chain 1: EVQLVESGGGLVQPGESLRLSCVASGFSFSSYDMHWVRQDTKKGLEWVAAIGTSGDIYYADSVKGRFIISREAAKASLYLQMNSLRAGDSARYYCTRGDSYPSGTYSGTGYYFDSWGQGTLVAVSS
chain 2: DIQLTQSQPSLSASVGDRVTITCRASQSIGRFLNWYQQKAGKAPNLLIYATSNLQSGVPSRFSATGSGTDFTLTISSLQPEDFATYYCQQSYSMPPWTFGQGTKLEIK
B2: BD55-5189 (protein)
chain 1: QVQLVQSGAEVKKPGASVKVSCKASGYSFTTFYIHWLRQAPGQGLEWMGIVNVAGDTTDYAQNFQGRVTMTRDTSTGTVYMELSSLRSEDTAIYYCASPREKGYSGYDFWETTFDIWGQGTMVTVS
chain 2: EVVMTQSPATLSVSPGERATLSCRASQSISSNLAWYQQKPGQAPRLLIYGASTRATGIPARFSGSGSGSQFTLTISSLQSEDFVVYYCQQYNNWPPIFGQGTKLEIK
B3: BD55-4804 (protein)
chain 1: QVQLVQSGSELKKPGASVKVSCKASGYTFTSYAMNWVRQAPGQGLEWMGWINTDTGNPTFAQGFTGRFVFSLDTSVSTAYLQISTLKAEDTAVYYCARADRDYFGYEAFDIWGQGTVVTVSS
chain 2: DIQMTQSPSSLSASVGDRVTITCRASQSISNYVNWYQQKPGKAPKNLIYAASSLQSGVPSRFSGSGSGTDFTLTISSLQPEDFATYYCQQTYSTHLLSFGGGTKVEIK
B4: BD55-5171 (protein)
chain 1: QVQLVQSGSGLKKPGASVKVSCRTSGYSFTDHTINWVRQAPGQGLEWMGWINTATGIPTYAQGFTGRFVFSLDTSVGTAFLLISSLQAADTAVYYCARAASWDYCGNNNCFGDYWGQGTLVTVSS
chain 2: ENVLTQSPGTLSLSVGERVTLSCRASHSVGSSFLAWYQQKPGQAPRLLIYGASNRATGIPDRISGRGSGTDFSLTISRLEPEDFAVYYCHQYGSSPFTFGQGTKVEIK
B5: BD55-4418 (protein)
chain 1: QVQLVESGGGVVQPGSSLRLSCAASGFTFSNYDIHWVRQAPGKGLEWVAVISRDGSSKFYADSVQGRVGISRDNSKTTLHLSSLREEDTAVYYCAKEQTYDTMTGLYYFDSWGQGTLVTVSS
chain 2: DIQMTQSPSSLSASVGDRVTITCRASQSIGRHLNWYQQKPGKAPKPLIYAASNLQGGVPSRFSGSGAGTHFTLTISSLQPEDFATYYCQQNYNTPQITFGPGTKVDI
B6: BD55-5001 (protein)
chain 1: QVQLVQSGSELKKPGASVKVSCKTSGYTFSTYAINWVRQAPGQGLEWMGWINTDTGIPTYAQGFTGRFVLSLDTSVGTAYLQISSLKAEDTAVYYCARADSGSYSWWFDPWGQGTLVTVSS
chain 2: VIWMTQSPSSLSASIGDRVTISCRLSYGISSELVWYKQKPGKAPELLIYAASILQSGVPSRFSGTGSGTDFTLTISGLQSEDFATYYCQQYYSFPLTFGQGTKVEIK
B7: BD55-5166 (protein)
chain 1: EVQLVESGGGLVQPGRSLRLSCAVSGLTFDDYAMHWVRQAPGKGLEWVSGISWNGGDIVYADSVKGRFAVSRDNAKNSLYLQMNSLRPEDTAVYYCTKDRLGEIFPCFDQWGQGTLVTVSS
chain 2: QSALTQPASVSGSPGQSITISCTGTSNDVGRSNLVSWYQQHPGKAPKLMIFEVSARPSGVSYRFSGSKSGNTASLTISGLRAEDEADYYCCSDARTGTFSVLFGGGTKLTVL
B8: BD55-4394 (protein)
chain 1: EVQLVESGGGLVQPGGSLRLSCAAAGFTFSSYAMHWVRQAPGKGLEYVSSITSDGGGKFYANSAEGRFTISRDNSKNTLYLQMGSLRAEDMALYYCARESGNIVTTTLDFWGQGTLVTVSS
chain 2: DIQMTQSPSSLSASVGDRVTITCRASQIISRYLNWYQQKPGKGPKLLIYGASSLQSGVPARFSGSGSGTDFTLTISSLQPEDFATYYCQQSYSSPLYTFGQGTKLEIK
B9: BD55-4464 (protein)
chain 1: EVQLVESGGGVVQPGGSRRLSCVASGFTFTSYDIHWVRQGTGKSLEWVSTIDTAGDTYYADSAKGRFTISRENAKKSVYLQMSSLRAGDTAVYFCVRAYPFYDMLTGDTYHYYGLDVWGQGTTVIVSS
chain 2: EIVLTQSPGTLSLSPGERATLSCRASQSVSTNYLAWFQQKPGQAPRLLIYGASSRATGIPDRFSGSGSGTDFTLTISFLEPEDSAVYYCQQYGRSPPLTFGGGTKVEIK
B10: BD55-5200 (protein)
chain 1: QVQLQESDPGLVKPSQTLSLTCTVSGGSISGGSNFWNWIRQPAGKGLEWIGRIYTSGNTDYNPSLKSRVTISVDTSKNQFSLRLSSVTAADTAVYYCARDRLSGKVEVAINHFSYGLDVWGPGTTVTVSS
chain 2: SHELTQPPSVSVSPGQTARITCSGDALPKQYAYWYQQKSGQAPVLVIYKDSERPSGIPERFSGSSSGRTVTLTISGVQAEDEADYYCQSADSSNIYLAFGGGTKVTVL
B11: BD55-4707 (protein)
chain 1: EVQLVQSGVEVKKPGESLKISCKGSGYTYTTQWIGWVRQMPGKGLEWMGIIYPGDSETIYSPSFQGQVTISADKSISTAYLQWNSLKASDTAMYYCAASGGLRWGLEYWGQGTLVTVSS
chain 2: DIVMTQSPESLAVSLGERATINCKSSQSVLYSSNNKNSLAWYQQKPGQPPKLLIYWASTRESGVPDRFSGSGSGTNFTLTISSLQAEDVAVYYCQQYYNTWYTFGQGTKLEIK
B12: BD55-4392 (protein)
chain 1: QVHLVQSGAEVKKSGASVKVSCKASAYIFTSYGISWVRQAPGQGLEWMGWISTSTGYTSYSQNLQGRVTMSTDTSTSTAYMELRSLTSDDTAVYYCARESGYSGYDSGGYYYYGMDVWGQGTTVTVSS
chain 2: QSALTQPASVSGSPGQSITISCTGSSSEAVTYNLVSWYQQHPGKAPKLIIYEGSERPSGVSSRFSGSQSGDTASLTISGLQAEDGADYYCCSYAPSAALKGVFGGGTKLTVL

In one assay the target is SARS-CoV-2 Omicron BA.1 spike pseudovirus. Kind of assay: pseudovirus neutralization IC50; higher = weaker neutralization. The protocol: (§1)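 Single-round VSV luciferase pseudovirus mixed with antibody dilutions for 1 h and put on Huh-7 cells for about a day; IC50 from the dose curve.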
In the case of B1, the “pseudovirus neutralization IC50” value was more than 10 µg/mL.
Still for that read-out and setting: the same measure for B2: more than 10 µg/mL; for B3: more than 10 µg/mL; for B4: more than 10 µg/mL.
As to B5, the “pseudovirus neutralization IC50” value was more than 10 µg/mL.
The same measure, in the same setting: in the case of B6 it was more than 10 µg/mL; in that of B7, more than 10 µg/mL; in that of B8, more than 10 µg/mL.
With B9, the “pseudovirus neutralization IC50” value was more than 10 µg/mL.
Same read-out and setting: the same measure for B10: more than 10 µg/mL.
B11: the “pseudovirus neutralization IC50” value was more than 10 µg/mL.
On the same count and under the same terms, the same measure for B12: more than 10 µg/mL.

The next assay deals with SARS-CoV-2 Omicron BA.2 spike pseudovirus. The assay is described as above. The protocol: as §1
As to B1, the “pseudovirus neutralization IC50” value was more than 10 µg/mL.
With B2, the “pseudovirus neutralization IC50” value is more than 10 µg/mL.
Regarding B3, the “pseudovirus neutralization IC50” value was more than 10 µg/mL.
Same read-out and setting: the same measure for B4: more than 10 µg/mL; for B5: more than 10 µg/mL.
In the case of B6, the “pseudovirus neutralization IC50” value was more than 10 µg/mL.
Same read-out and setting: the same measure for B7: more than 10 µg/mL; for B8: more than 10 µg/mL; for B9: more than 10 µg/mL.
Still for that read-out and setting: in the case of B10 it was more than 10 µg/mL.
In the case of B11, the “pseudovirus neutralization IC50” value was more than 10 µg/mL.
The same measure, in the same setting: in the case of B12 it was more than 10 µg/mL.

In another assay the target is SARS-CoV-2 Omicron BA.2.75 spike pseudovirus. Described as above. The protocol: as §1
In the case of B1, the “pseudovirus neutralization IC50” value was more than 10 µg/mL.
Take B2: the “pseudovirus neutralization IC50” value is more than 10 µg/mL.
The same measure, in the same setting: in the case of B3 it was more than 10 µg/mL.
On the same count and under the same terms, the same measure for B4: more than 10 µg/mL; for B5: more than 10 µg/mL.
B6: the “pseudovirus neutralization IC50” value is more than 10 µg/mL.
Still for that read-out and setting: in the case of B7 it was more than 10 µg/mL.
As for B8, the “pseudovirus neutralization IC50” value was more than 10 µg/mL.
For the molecule B9, the “pseudovirus neutralization IC50” value is more than 10 µg/mL.
Same read-out and setting: the same measure for B10: more than 10 µg/mL.
As for B11, the “pseudovirus neutralization IC50” value was more than 10 µg/mL.
Still for that read-out and setting: in the case of B12 it was more than 10 µg/mL.

The target in a further assay is SARS-CoV-2 Omicron BA.5 spike pseudovirus. Described as above. The protocol:
as §1
As for B1, the “pseudovirus neutralization IC50” value is more than 10 µg/mL.
Regarding B2, the “pseudovirus neutralization IC50” value is more than 10 µg/mL.
The same measure, in the same setting: the same measure for B3: more than 10 µg/mL; for B4: more than 10 µg/mL.
With B5, the “pseudovirus neutralization IC50” value was more than 10 µg/mL.
For B6, the “pseudovirus neutralization IC50” value is more than 10 µg/mL.
The same measure, in the same setting: in the case of B7 it was more than 10 µg/mL; in that of B8, more than 10 µg/mL.
Regarding B9, the “pseudovirus neutralization IC50” value was more than 10 µg/mL.
On the same count and under the same terms, in the case of B10 it was more than 10 µg/mL; in that of B11, more than 10 µg/mL; in that of B12, more than 10 µg/mL.

The target of a further assay is SARS-CoV-2 Omicron BQ.1.1 spike pseudovirus. Described as above. The protocol: as §1
As for B1, the “pseudovirus neutralization IC50” value is more than 10 µg/mL.
Regarding B2, the “pseudovirus neutralization IC50” value was more than 10 µg/mL.
As for B3, the “pseudovirus neutralization IC50” value is more than 10 µg/mL.
Consider B4, for which the “pseudovirus neutralization IC50” value is more than 10 µg/mL.
Still for that read-out and setting: the same measure for B5: more than 10 µg/mL.
Same read-out and setting: in the case of B6 it was more than 10 µg/mL; in that of B7, more than 10 µg/mL; in that of B8, more than 10 µg/mL.
Still for that read-out and setting: the same measure for B9: more than 10 µg/mL; for B10: more than 10 µg/mL.
B11: the “pseudovirus neutralization IC50” value is more than 10 µg/mL.
As for B12, the “pseudovirus neutralization IC50” value is more than 10 µg/mL.

Another assay addresses SARS-CoV-2 Omicron XBB spike pseudovirus. The description is as above. The protocol:
as §1
Consider B1, for which the “pseudovirus neutralization IC50” value is more than 10 µg/mL.
Take B2: the “pseudovirus neutralization IC50” value was more than 10 µg/mL.
Turning to B3, the “pseudovirus neutralization IC50” value is more than 10 µg/mL.
The same measure, in the same setting: in the case of B4 it was more than 10 µg/mL.
On the same count and under the same terms, the same measure for B5: more than 10 µg/mL; for B6: more than 10 µg/mL; for B7: more than 10 µg/mL.
With B8, the “pseudovirus neutralization IC50” value was more than 10 µg/mL.
For B9, the “pseudovirus neutralization IC50” value is more than 10 µg/mL.
Still for that read-out and setting: the same measure for B10: more than 10 µg/mL; for B11: more than 10 µg/mL.
Regarding B12, the “pseudovirus neutralization IC50” value is more than 10 µg/mL.

The target in the next assay is SARS-CoV-2 early D614G spike pseudovirus. The description is as above. The protocol: as §1
For B1, the “pseudovirus neutralization IC50” value is more than 10 µg/mL.
As for B2, the “pseudovirus neutralization IC50” value stood at 0.00752 µg/mL.
Consider B3, for which the “pseudovirus neutralization IC50” value was more than 10 µg/mL.
Same read-out and setting: the same measure for B4: 0.00201 µg/mL.
Take B5: the “pseudovirus neutralization IC50” value came to 2.47 µg/mL.
Still for that read-out and setting: in the case of B6 it was 0.00677 µg/mL.
With B7, the “pseudovirus neutralization IC50” value was more than 10 µg/mL.
The same measure, in the same setting: the same measure for B8: more than 10 µg/mL; for B9: 3.32 µg/mL; for B10: 0.185 µg/mL.
As for B11, the “pseudovirus neutralization IC50” value is more than 10 µg/mL.
In the case of B12, the “pseudovirus neutralization IC50” value was more than 10 µg/mL.
